Results from article PMC7582914, “Cell-penetrating peptide-mediated cell entry of H5N1 highly pathogenic avian influenza virus” (2020).

Assays:
Lec8 cells = test: Cell number and viability, trypan blue dye exclusion; conditions: EIPA 10, 20 and 40 μM, 37 °C, 8 h, n = 3 (Fig. S9a)
A549 cells = test: Peptide uptake by flow cytometry, A549 cells; conditions: 10 µg/mL FITC-conjugated peptide in serum-free Opti-MEM, 60 min, 37 °C, harvested with 0.25% trypsin-EDTA, geometric MFI of FITC in 7-AAD-negative viable cells relative to untreated cells, mean ± SEM, n = 3
HeLa cells = test: Peptide uptake by flow cytometry, HeLa cells; conditions: 10 µg/mL FITC-conjugated peptide in serum-free Opti-MEM, 60 min, 37 °C, harvested with 0.25% trypsin-EDTA, geometric MFI of FITC in viable cells relative to untreated cells, mean ± SEM, n = 3
Raji cells = test: Peptide uptake by flow cytometry, Raji cells; conditions: 10 µg/mL FITC-conjugated peptide, 60 min, 37 °C, then 0.1% trypsin-EDTA 10 min 37 °C, geometric MFI of FITC in viable cells relative to untreated cells, mean ± SEM, n = 3
U937 cells = test: Peptide uptake by flow cytometry, U937 cells; conditions: 10 µg/mL FITC-conjugated peptide, 60 min, 37 °C, then 0.1% trypsin-EDTA 10 min 37 °C, geometric MFI of FITC in viable cells relative to untreated cells, mean ± SEM, n = 3
MDCK cells = test: Peptide uptake by flow cytometry, MDCK cells; conditions: 10 µg/mL FITC-conjugated peptide in serum-free Opti-MEM, 60 min, 37 °C, harvested with 0.25% trypsin-EDTA, geometric MFI of FITC in viable cells relative to untreated cells, mean ± SEM, n = 3
KU812 cells = test: Peptide uptake by flow cytometry, KU812 cells
THP-1 cells = test: Peptide uptake by flow cytometry, THP-1 cells; conditions: 10 µg/mL FITC-conjugated peptide, 60 min, 37 °C, then 0.1% trypsin-EDTA 10 min 37 °C, geometric MFI of FITC in viable cells relative to untreated cells, mean ± SEM, n = 3
HL-60 cells = test: Peptide uptake by flow cytometry, HL-60 cells; conditions: 10 µg/mL FITC-conjugated peptide, 60 min, 37 °C, then 0.1% trypsin-EDTA 10 min 37 °C, geometric MFI of FITC in viable cells relative to untreated cells, mean ± SEM, n = 3
COS-7 cells [1] = test: Peptide uptake by flow cytometry, COS-7 cells; conditions: 60 min, 37 °C
Jurkat cells = test: Peptide uptake by flow cytometry, Jurkat cells; conditions: 10 µg/mL FITC-conjugated peptide, 60 min, 37 °C, then 0.1% trypsin-EDTA 10 min 37 °C, geometric MFI of FITC in viable cells relative to untreated cells, mean ± SEM, n = 3
NIH/3T3 cells = test: Peptide uptake by flow cytometry, NIH/3T3 cells; conditions: 10 µg/mL FITC-conjugated peptide in serum-free Opti-MEM, 60 min, 37 °C, harvested with 0.25% trypsin-EDTA, geometric MFI of FITC in viable cells relative to untreated cells, mean ± SEM, n = 3
J774A.1 cells = test: Peptide uptake by flow cytometry, J774A.1 cells; conditions: 10 µg/mL FITC-conjugated peptide, 60 min, 37 °C, then 0.1% trypsin-EDTA 10 min 37 °C, geometric MFI of FITC in viable cells relative to untreated cells, mean ± SEM, n = 3
COS-7 cells [2] = test: Confocal microscopy imaging of peptide internalisation, COS-7 cells; conditions: living, unfixed, 10 μg/mL FITC-conjugated peptide, 60 min, 37 °C, representative of three experiments (Fig. 1b, S1)
[3] = Peptide distribution in lung tissue, mouse intranasal inhalation model; conditions: C57BL/6 N mice, 25 μg FITC-conjugated peptide, lungs isolated 15 min after inhalation, anti-fluorescein immunostaining, confocal microscopy, five experiments (Fig. 2b)

SMILES | Total cell number and cell viability (Lec8 cells) | Relative fluorescence intensity (A549 cells) [fold change] | Relative fluorescence intensity (HeLa cells) [fold change] | Relative fluorescence intensity (Raji cells) [fold change] | Relative fluorescence intensity (U937 cells) [fold change] | Relative fluorescence intensity (MDCK cells) [fold change] | Increase of MFI after removal of surface-bound peptide with trypsin (KU812 cells; 10 µg/mL FITC-conjugated peptide 60 min 37 °C, then with or without 0.1% trypsin-EDTA 10 min 37 °C, n = 3 (Fig. S3)) | Relative fluorescence intensity (KU812 cells; 10 µg/mL FITC-conjugated peptide in Opti-MEM, 60 min, 37 °C, then 0.1% trypsin-EDTA 10 min 37 °C, flow cytometry, geometric MFI of FITC in viable cells relative to untreated cells, mean ± SEM, n = 3) [fold change] | Incubation time at which peptide uptake was maximal (KU812 cells; 10 μg/mL FITC-conjugated peptide, 37 °C, 30, 60, 120, 180 and 240 min, flow cytometry MFI, n = 3 (Fig. S2)) [min] | Geometric mean fluorescence intensity (MFI) in viable cells (KU812 cells; 10 μg/mL FITC-conjugated peptide, 37 °C, 60 min, flow cytometry, n = 3 (Fig. 1c), result in words) | Relative fluorescence intensity (THP-1 cells) [fold change] | Relative fluorescence intensity (HL-60 cells) [fold change] | Relative fluorescence intensity (COS-7 cells [1]; 10 µg/mL FITC-conjugated peptide in Opti-MEM, harvested with 0.25% trypsin-EDTA, geometric MFI of FITC in viable cells relative to untreated cells, mean ± SEM, n = 3) [fold change] | Geometric mean fluorescence intensity (MFI) in viable cells (COS-7 cells [1]; 10 μg/mL FITC-conjugated peptide, n = 3 (Fig. 1c), result in words) | Relative fluorescence intensity (Jurkat cells) [fold change] | Relative fluorescence intensity (NIH/3T3 cells) [fold change] | Relative fluorescence intensity (J774A.1 cells) [fold change] | Internalisation and localisation of peptide by confocal microscopy (COS-7 cells [2]) | Peptide distribution in lung tissue sections [3]
CCN(c1nc(N)c(C(=O)NC(=N)N)nc1Cl)C(C)C | not affected |  |  |  |  |  |  |  |  |  |  |  |  |  |  |  |  |  | 
N=C(N)NCCC[C@H](NC(=O)[C@H](CCCNC(=N)N)NC(=O)[C@H](CCCNC(=N)N)NC(=O)[C@H](CCC(N)=O)NC(=O)[C@H](CCCNC(=N)N)NC(=O)[C@H](CCCNC(=N)N)NC(=O)[C@H](CCCCN)NC(=O)[C@H](CCCCN)NC(=O)[C@H](CCCNC(=N)N)NC(=O)CNC(=O)[C@H](Cc1ccc(O)cc1)NC(=O)CCCCCNC(=S)Nc1ccc2c(c1)C(=O)OC21c2ccc(O)cc2Oc2cc(O)ccc21)C(=O)O |  | 31.4 ± 1.8 | 90.0 ± 12.3 | 29.5 ± 4.1 | 43.5 ± 9.6 | 58.7 ± 17.4 | persisted even after trypsin treatment | 89.7 ± 3.4 | 30 | significant increase of MFI | 37.6 ± 7.5 | 25.6 ± 3.6 | 59.2 ± 7.3 | significant increase of MFI | 32.7 ± 3.3 | 55.0 ± 23.1 | 68.0 ± 8.9 | localised in both the cytoplasm and nucleus | wide distribution
